The test concerns the target PfNapS mutant C154A, acrylodan-labelled (Plasmodium falciparum). Description: other fluorescence titration.

As for “histone H3 (from UniProt P68432 1-136) (natural protein)”, the change in the chromic shift relative to C47A came out at 2 times.

For the origin of these results see paper PMC2873526.
